Measured values from several laboratories, pooled; numbers as filed in NIAID ChemDB.

All rows: host cell toxicity; endpoint: CC50

An empty or dashed field is not shown.

compound,conditions,read by,cells,result
NC(=S)N=Nc1c(O)[nH]c2ccccc12,-,MTT / absorbance,Human foreskin fibroblasts,9 µM
C[C@@H]1O[C@@H](O[C@@H]2[C@@H](O)[C@H](OCCc3ccc(O)c(O)c3)O[C@H](COC(=O)/C=C/c3ccc(O)c(O)c3)[C@H]2O)[C@H](O)[C@H](O)[C@H]1O,-,MTT,MDA-MB-231,9.3 µM
Clc1ccc2c(NCCCN3CCN(c4ccnc5cc(Cl)ccc45)CC3)ccnc2c1,-,MTT / absorbance,Human foreskin fibroblasts,1.43 µM
Cc1cn([C@H]2C[C@H](N=[N+]=[N-])[C@@H](CO)O2)c(=O)[nH]c1=O,-,-,C3H,>200 µM
CCOc1cc(OCC)nc(NC(=S)NC(=O)c2ccc(-c3ccc([N+](=O)[O-])cc3)o2)n1,-,MTS,MDCK,>300 µM
CC1(C)C2CCC1(C)C(NC(=O)[C@@H](O)Cc1ccccc1)C2,-,MTT,HEK293T,52.8 µM
COC(=O)[C@H]1C2CON=C2c2cc3c(cc2[C@H]1c1cc(OC)c(OC)c(OC)c1)OCO3,-,-,HT-29,11 µM
CCCCOc1ccc(Nc2cn(C3C=CC(O)C3)c(=O)n(C3C=CC(O)C3)c2=O)cc1,-,MTT,Vero cells,>50 µg/mL
CC(=O)O/N=C1/C[C@H](n2cc(C)c(=O)[nH]c2=O)O[C@@H]1CO,-,-,P3HR-1,>20 µg/mL
Cc1ccc(Nc2cn(C3C=CC(O)C3)c(=O)n(C3C=CC(O)C3)c2=O)cc1,-,MTT,Vero cells,>50 µg/mL
CC1C(=O)N(O)c2ncc(Br)cc2C1O,7 d,MTS,HepG2-NTCP-12,61.7 µM
O=c1[nH]cnc2[nH]ncc12,-,-,HeLa,>200 µg/mL
CCCCc1ccc(Nc2c[nH]c(=O)[nH]c2=O)cc1,-,MTT,Huh7 cells,>50 µg/mL
CCCCC/C=C\C/C=C\C/C=C\C/C=C\CCCC(=O)O,-,-,HeLa,50–100 µg/mL
CC(C)CNc1ncnc2c1ncn2CCOCP(=O)(O)O,-,-,P3HR-1,>100 µg/mL
COc1cc(Cl)nc(NC(=S)NC(=O)c2cccnc2Cl)n1,-,MTS,MDCK,>300 µM
C[C@H]1[C@H](C)CC[C@]2(C(=O)O)CC[C@]3(C)C(=CC[C@@H]4[C@@]5(C)CC[C@H](O)C(C)(C)[C@@H]5CC[C@]43C)[C@H]12,-,ATP,RAJI,>26 µM
CCOc1cc(C)nc(NC(=S)NC(=O)c2ccc(-c3ccc([N+](=O)[O-])cc3)o2)n1,-,MTS,MDCK,>300 µM
CC/C=C\C[C@H]1C(=O)CC[C@@H]1CC(=O)OC,-,ATP,BJ,>26 µM
COC(=O)[C@H]1[C@@H]2CON=C2c2cc3c(cc2[C@H]1C1=CC(=O)C(=O)C(OC)=C1)OCO3,-,-,MEL-28,12 µM
Cc1cc(C)nc(NC(=S)NC(=O)C2C(/C=C(/Cl)C(F)(F)F)C2(C)C)n1,-,MTS,MDCK,>300 µM
O=C1C(=O)N(CN2CCN(c3ccnc4cc(Cl)ccc34)CC2)c2ccccc21,-,MTT / absorbance,Human foreskin fibroblasts,8 µM
CC[C@H](/C=C/[C@@H](C)[C@H]1CCC2C3CC=C4C[C@@H](O)CC[C@]4(C)[C@@]3(C)CC[C@@]21C)C(C)C,-,ATP,BJ,>26 µM
Cc1cn([C@H]2C/C(=N\O)[C@@H](CO)O2)c(=O)[nH]c1=O,-,-,P3HR-1,>100 µg/mL
CC1(C)CC[C@]2(C(=O)O)CC[C@]3(C)C(=CC[C@@H]4[C@@]5(C)C[C@@H](O)[C@H](O)[C@@](C)(CO)[C@@H]5CC[C@]43C)[C@@H]2C1,-,ATP,RAJI,>26 µM
CSCC[C@H](O)C(=O)NC1CC2CCC1(C)C2(C)C,-,MTT,HEK293T,171.5 µM
COC(=O)[C@@H]1[C@H](c2cc(OC)c(OC(C)=O)c(OC(C)=O)c2)c2cc3c(cc2C2=NOC[C@@H]21)OCO3,-,-,HT-29,20 µM
NC(=O)c1[nH]c2ccc(Cl)cc2c1S(=O)(=O)c1ccccc1,-,-,Lymphocytes,>20 µM
COc1cc([C@@H]2c3cc4c(cc3[C@H](OC(C)=O)[C@@H]3COC(=O)[C@@H]23)OCO4)cc2nc3cc(C)c(C)cc3nc12,-,-,MEL-28,4.8 µM
O=C(CO)CCC(=O)OCCc1ccc2c(c1)OCO2,-,MTT,HL-60,4.05 µM
CC(/C=C/C=C(\C)CC(=O)O)=C\C=C\C=C(C)\C=C\C(C)=C(/C)C(=O)O,-,ATP,RAJI,>26 µM
CC[C@H]1OC(=O)[C@H](C)[C@@H](O[C@H]2C[C@@](C)(OC)[C@@H](O)[C@H](C)O2)[C@H](C)[C@@H](O[C@H]2O[C@@H](C)C[C@@H](N(C)C)[C@@H]2O)[C@](C)(O)C[C@@H](C)C(=O)[C@H](C)[C@@H](O)[C@]1(C)O,-,-,HeLa,>200 µg/mL
Oc1cccc2cccnc12,-,MTT / absorbance,Human foreskin fibroblasts,0.5 µM
CC(C)(C)NC(=O)NC(=S)NC(=O)C1C(C=C(Cl)Cl)C1(C)C,-,MTS,MDCK,>300 µM
CC/C=C\C/C=C\C/C=C\CCCCCCCCO,-,-,HeLa,25 µg/mL
OCCc1ccc(O)c(O[C@@H]2O[C@H](CO)[C@@H](O)[C@H](O)[C@H]2O)c1,-,MTT,HL-60,5.59 µM
CCCCOc1ccc(Nc2c[nH]c(=O)[nH]c2=O)cc1,-,MTT,Huh7 cells,>50 µg/mL
CC/C=C\C[C@@H]1[C@@H](CC(=O)OC)CC[C@@H]1O,-,ATP,RAJI,>26 µM
COc1cc(Cl)nc(NC(=S)NC(=O)c2ccc(-c3ccccc3Cl)o2)n1,-,MTS,MDCK,>300 µM
CN(C)CCNc1ncnc2c1ncn2CCOCP(=O)(O)O,-,-,P3HR-1,>100 µg/mL
Clc1ccc2ccccc2n1,-,MTT / absorbance,Human foreskin fibroblasts,8.5 µM
CC(=O)O[C@@H]1OC(=O)[C@](C)(C(C)=O)[C@@H]1C,-,-,HeLa,10–20 µg/mL
Cc1cc(C)nc(NC(=S)NC(=O)c2ccccc2)n1,-,MTS,MDCK,>300 µM
CCCCCCCCCCCC(=O)OC[C@H](COP(=O)([O-])OCC[N+](C)(C)C)OC(=O)CCCCCCCCCCC,-,-,HeLa,>200 µg/mL
OCCc1ccc(O)c(O)c1,-,MTT,MDA-MB-231,7.86 µM
CCC1OC(=O)C(C)CC(C)C(OC2OCCCC2O)C(C)C(=O)/C=C/C1(C)O,-,-,HeLa,1–10 µg/mL
COc1cc([C@@H]2c3cc4c(cc3[C@H](OC(C)=O)[C@@H]3COC(=O)[C@@H]23)OCO4)cc2nc3ccccc3nc12,-,-,P-388,1 µM
NC(=O)c1[nH]nc([C@@H]2O[C@H](CO)[C@@H](O)[C@H]2O)c1O,-,-,HeLa,100 µg/mL
CC(C)[C@H](O)C(=O)NC1CC2CCC1(C)C2(C)C,-,MTT,HEK293T,>200 µM

A second listing of 6 rows from above:

compound | conditions | read by | cells | result
COC(=O)[C@H]1[C@@H]2CON=C2c2cc3c(cc2[C@H]1C1=CC(=O)C(=O)C(OC)=C1)OCO3 | - | - | MEL-28 | 12 µM
CCOc1cc(C)nc(NC(=S)NC(=O)c2ccc(-c3ccc([N+](=O)[O-])cc3)o2)n1 | - | MTS | MDCK | >300 µM
Clc1ccc2ccccc2n1 | - | MTT / absorbance | Human foreskin fibroblasts | 8.5 µM
Clc1ccc2c(NCCCN3CCN(c4ccnc5cc(Cl)ccc45)CC3)ccnc2c1 | - | MTT / absorbance | Human foreskin fibroblasts | 1.43 µM
CC(C)(C)NC(=O)NC(=S)NC(=O)C1C(C=C(Cl)Cl)C1(C)C | - | MTS | MDCK | >300 µM
CCCCOc1ccc(Nc2cn(C3C=CC(O)C3)c(=O)n(C3C=CC(O)C3)c2=O)cc1 | - | MTT | Vero cells | >50 µg/mL

Conditions beyond the fields shown may differ between rows. CCn: concentration that lowers growth or viability of the cells by n%. a–b is a range or a potency band.